Results of unrelated studies side by side (data: NIAID ChemDB).

All rows: tests in culture; species: Aspergillus fumigatus; measure: MIC

Lines come from different laboratories, so protocols vary. An empty or dashed field is not shown.

smiles	strain	result
COc1ccc(C(=O)/C=C/c2ccc(C(=O)O)cc2)cc1OC	3 clinical isolates	>32 µg/mL
CCCCCCCCNC1CCc2cccc(OC)c2C1	-	64 µM
COc1ccc2nc(Oc3ccc(Cl)cc3)c(C3C(C#N)=C(N)Oc4c3c(=O)oc3ccc(C)cc43)cc2c1	MTCC 3008	500 µg/mL
C[C@@H](c1ncncc1F)[C@](O)(Cn1cncn1)c1ccc(F)cc1F	NFI 0239	1 µg/mL
Cc1ccc2ccc(=O)oc2c1	ATCC 16913	1000 µg/mL
CCCCCCCCCCNC1CCc2cccc(O)c2C1	-	32 µM
COc1ccc(/C=C/C(=O)c2ccccc2)c(OC)c1	ATCC 26934	>50 µg/mL
CC(C)(C)c1ccc(CN(Cc2cccc3ccccc23)N2C=NNC2)cc1	-	>200 µM
COc1ccc(/C=C/C(=O)N2C/C(=C\c3ccccc3)C(=O)/C(=C/c3ccccc3)C2)cc1OC	3 clinical isolates	>32 µg/mL
CCCCCCCCCNC1CCc2ccc(O)cc2C1	-	32 µM
CCN1CCN(C)CC1	ITCC 4517	250 µg/mL
COc1cc(O)c2c(c1)C(=O)c1c(cc3c(c1O)-c1c(cc(C)c(C(=O)N[C@H](C)C(=O)O)c1O)[C@H](O[C@@H]1O[C@H](C)[C@H](N)[C@H](O[C@@H]4OC[C@@H](O)[C@H](O)[C@@H]4O)[C@H]1O)[C@H]3O)C2=O	IAM2530	1.6 µg/mL
O=C1/C(=C/c2ccccc2)CNC/C1=C\c1ccccc1	3 clinical isolates	>32 µg/mL
Cc1nn(-c2ccccc2)c(Oc2ccc(Cl)cc2)c1C1C(C#N)=C(N)OC2=C1C(=O)CC(C)(C)C2	MTCC 3008	500 µg/mL
O=c1ccc2cc(O)ccc2o1	ATCC 16913	>1000 µg/mL
COc1ccc(/C=C/C(=O)N2C/C(=C\c3ccccc3)C(=O)/C(=C/c3ccccc3)C2)cc1	3 clinical isolates	>32 µg/mL
CCCCCCCCOc1ccc(-c2ccc(C(=O)NC3CC(NCCN)CNC(=O)[C@@H]4[C@@H](O)[C@@H](C)CN4C(=O)[C@@H](CO)NC(=O)[C@H]([C@H](O)Cc4ccccc4)NC(=O)[C@@H]4C[C@@H](O)CN4C(=O)[C@H]([C@@H](C)O)NC3=O)cc2)cc1	50 isolates	0.125 µg/mL
O=c1ccc2ccc(Cl)cc2o1	ATCC 16913	1000 µg/mL
C(#Cc1ccccc1)CN1CCN(Cc2ccccc2)CC1	ITCC 4517	500 µg/mL
Cc1ccc(-n2nc(C)c(C3C(C#N)=C(N)OC4=C3C(=O)CC(C)(C)C4)c2Oc2ccccc2)cc1	MTCC 3008	1000 µg/mL
N#CC(C#N)C(CC(=O)c1ccccc1)c1cc2ccccc2nc1Cl	ATCC 26934	>50 µg/mL
N#CC1=C(N)Oc2c(c(=O)oc3ccccc23)C1c1cc2ccccc2nc1Oc1ccccc1	MTCC 3008	500 µg/mL
C[C@H]1[C@H](O)[C@@H](C)/C=C/C=C/C=C/C=C/C=C/C=C/C=C/[C@H](O[C@@H]2O[C@H](C)[C@@H](O)[C@H](N)[C@@H]2O)C[C@@H]2O[C@](O)(C[C@@H](O)C[C@@H](O)CC[C@H](O)[C@@H](O)C[C@@H](O)CC(=O)O[C@H]1C)C[C@H](O)[C@H]2C(=O)O	NFI 0239	1 µg/mL
O=c1ccc2cc([N+](=O)[O-])ccc2o1	ATCC 16913	500 µg/mL
Cc1ccc2nc(Oc3ccc(Cl)cc3)c(C3C(C#N)=C(N)Oc4c3c(=O)oc3ccc(C)cc43)cc2c1	MTCC 3008	500 µg/mL
CCCCCCCCCNC1CCc2cccc(O)c2C1	-	64 µM
CCCCCOc1ccc(-c2cc(-c3ccc(C(=O)N[C@H]4C[C@@H](O)[C@@H](O)NC(=O)[C@@H]5[C@@H](O)[C@@H](C)CN5C(=O)[C@H]([C@H](O)CC(N)=O)NC(=O)[C@H]([C@H](O)[C@@H](O)c5ccc(O)c(OS(=O)(=O)O)c5)NC(=O)[C@@H]5C[C@@H](O)CN5C(=O)[C@H]([C@@H](C)O)NC4=O)cc3)no2)cc1	IFM40814	0.0078 µg/mL
COc1ccc2ccc(=O)oc2c1	ATCC 16913	1000 µg/mL
CN(C/C=C/c1ccccc1)Cc1cccc2ccccc12	-	>200 µM
O=[N+]([O-])c1ccc(CNC2CCc3c(O)cccc3C2)cc1	-	>64 µM
C(=C\c1ccccc1)/CN(Cc1cccc2ccccc12)n1cnnc1	-	>200 µM
COc1cccc(C(CC(=O)c2ccccc2)C(C#N)C#N)c1OC	ATCC 26934	>50 µg/mL
CCCCCCCCCCCCNC1CCc2ccc(OC)cc2C1	-	>64 µM
CN[C@@H]1[C@H](O)[C@@H](O)[C@H](O[C@H]2c3cc(C)c(C(=O)N[C@H](C)C(=O)O)c(O)c3-c3c(cc4c(c3O)C(=O)c3cc(OC)cc(O)c3C4=O)[C@@H]2O)O[C@@H]1C	IAM2034	3.1 µg/mL
CC(C)=CCc1c(O)ccc2ccc(=O)oc12	ATCC 16913	250 µg/mL
Cc1ccc(Oc2nc3ccc(C)cc3cc2C2C(C#N)=C(N)Oc3c2c(=O)oc2ccccc32)cc1	MTCC 3008	1000 µg/mL
Cc1ccc(C(=O)/C=C/c2ccc(C(=O)O)cc2)cc1	3 clinical isolates	>32 µg/mL
Cc1ccc(Oc2nc3ccccc3cc2C2C(C#N)=C(N)Oc3c2c(=O)oc2ccc(C)cc32)cc1	MTCC 3008	500 µg/mL
COc1ccc(C(=O)/C=C/c2ccc(C(=O)O)cc2)cc1	3 clinical isolates	>32 µg/mL
Cc1ccc(Oc2c(C3C(C#N)=C(N)OC4=C3C(=O)CC(C)(C)C4)c(C)nn2-c2ccccc2)cc1	MTCC 3008	1000 µg/mL
Cc1ccc(C(=O)/C=C/c2ccc(C(=O)N3C/C(=C\c4ccccc4)C(=O)/C(=C/c4ccccc4)C3)cc2)cc1	3 clinical isolates	>32 µg/mL
COc1ccc2nc(Oc3ccc(Cl)cc3)c(C3C(C#N)=C(N)Oc4c3c(=O)oc3ccccc43)cc2c1	MTCC 3008	>1000 µg/mL

Again, the opening 6 rows:

smiles,strain,result
COc1ccc(C(=O)/C=C/c2ccc(C(=O)O)cc2)cc1OC,3 clinical isolates,>32 µg/mL
CCCCCCCCNC1CCc2cccc(OC)c2C1,-,64 µM
COc1ccc2nc(Oc3ccc(Cl)cc3)c(C3C(C#N)=C(N)Oc4c3c(=O)oc3ccc(C)cc43)cc2c1,MTCC 3008,500 µg/mL
C[C@@H](c1ncncc1F)[C@](O)(Cn1cncn1)c1ccc(F)cc1F,NFI 0239,1 µg/mL
Cc1ccc2ccc(=O)oc2c1,ATCC 16913,1000 µg/mL
CCCCCCCCCCNC1CCc2cccc(O)c2C1,-,32 µM